Compound potency records, mixed from different reports. Data source: NIAID ChemDB in PubChem.

Common to all: growth or infection tests; agent: Cryptococcus neoformans

Percent inhibition refers to the dose given; in toxicity tests it is the harm to the cells. Neighbouring rows are from separate reports. Zone: diameter of growth inhibition. ECn is the concentration giving n% inhibition of infection, replication or growth. Blank or dashed fields: not listed here. MIC50, MIC90 and the like: level of inhibition, or share of isolates inhibited.

structure	read by	read-out	tested at	strain or isolate	value
Oc1ccccc1N=Cc1cccc(O)c1O		MIC99		ATCC 62066	2 µg/mL
O=C(OC1CCN(CC(O)(Cn2cncn2)c2ccc(F)cc2F)CC1)C(F)(F)Cl	broth dilution	MIC80		BLS108	35.5 µM
O=C1N[C@H](Cc2ccccc2)C(=O)N2CCC[C@H]12	agar diffusion / agar	zone	16 µg/mL		31 mm
CCCCCOc1ccc(-c2ccc(-c3ccc(C(=O)N[C@H]4C[C@@H](O)[C@@H](O)NC(=O)[C@@H]5[C@@H](O)[C@@H](C)CN5C(=O)[C@H]([C@H](C)O)NC(=O)[C@H]([C@H](O)[C@@H](O)c5ccc(O)cc5)NC(=O)[C@@H]5C[C@@H](O)CN5C(=O)[C@H]([C@H](C)O)NC4=O)cc3)cc2)cc1		MIC90		10 strains	>6 µg/mL
NCCCC[C@H](NC(=O)[C@H](Cc1c[nH]c2ccccc12)NC(=O)[C@H](CCCCN)NC(=O)[C@@H](N)CCCCN)C(=O)O		inhibition	50 µM	ATCC 32264	0%
CCN1CCC(O)(/C=C/c2ccc(OC)cc2)C(C(=O)/C=C/c2ccc(OC)cc2)C1		Mean MIC		2 strains	100 µM
Oc1ccc(O)c(C=Nc2ccccc2O)c1		MIC99		27JF	11.3 µg/mL
CCC(C)n1ncn(-c2ccc(N3CCN(c4ccc(OC[C@H]5CO[C@](Cn6cncn6)(c6ccc(Cl)cc6Cl)O5)cc4)CC3)cc2)c1=O	broth dilution	MIC50			0.06 µg/mL
C[C@@H](n1cnc2cc(Cl)ccc2c1=O)[C@](O)(Cn1cncn1)c1ccc(F)cc1F		MFC		Isolate 114.95	0.078 µg/mL
CN[C@H]1CC[C@@H](c2ccc(Cl)c(Cl)c2)c2ccccc21	broth dilution	MFC		93BC2-52	8 µg/mL
CC(=O)OC[C@H]1O[C@@H](O[C@@H]2[C@@H](N=[N+]=[N-])[C@H](O)[C@H](O)[C@H]3OC(C)(C)O[C@H]32)[C@H](OC(C)=O)[C@@H](OC(C)=O)[C@H]1OC(C)=O	broth dilution / turbidity	inhibition	31.25 µg/mL	ATCC 32264	3.23%
CCOC(=O)c1c(C)nc(NCCCCNc2ccnc3cc(Cl)ccc23)nc1-c1ccccc1		MIC99		ATCC 62066	8 µg/mL
N=C(N)c1ccc2nc(-c3ccc(-c4nc5ccc(C(=N)N)cc5[nH]4)[nH]3)[nH]c2c1		Geometric mean MIC		9 strains	0.39 µg/mL
O=[N+]([O-])c1ccc(C=Nc2ccccc2O)cc1	broth dilution	MIC		ATCC 62066	2.8 µg/mL
C[C@@H](N1CCN(Cc2cn(Cc3ccc(F)cc3)c3c(F)cccc23)CC1)[C@](O)(Cn1cncn1)c1ccc(F)cc1F	resazurin	MIC80		ATCC 36556	>128 µg/mL
C[C@H]1[C@H](O)[C@@H](C)/C=C/C=C/C=C/C=C/C=C/C=C/C=C/[C@H](O[C@@H]2O[C@H](C)[C@@H](O)[C@H](N)[C@@H]2O)C[C@@H]2O[C@](O)(C[C@@H](O)C[C@@H](O)CC[C@H](O)[C@@H](O)C[C@@H](O)CC(=O)O[C@H]1C)C[C@H](O)[C@H]2C(=O)O		MIC90		37 strains	0.25 µg/mL
CCN1CCC(O)(/C=C/c2ccc(C)cc2)C(C(=O)/C=C/c2ccc(C)cc2)C1		Mean MIC		2 strains	50 µM
C[C@H]1[C@H](O)[C@@H](C)/C=C/C=C/C=C/C=C/C=C/C=C/C=C/[C@H](O[C@@H]2O[C@H](C)[C@@H](O)[C@H](N)[C@@H]2O)C[C@@H]2O[C@](O)(C[C@@H](O)C[C@@H](O)CC[C@H](O)[C@@H](O)C[C@@H](O)CC(=O)O[C@H]1C)C[C@H](O)[C@H]2C(=O)O		MFC99		A28201	0.5 µg/mL
CCC(C)CC(C)CCCCCCCCC(=O)N[C@H]1C[C@@H](O)[C@H](NCCN)NC(=O)[C@@H]2[C@@H](O)CCN2C(=O)[C@H]([C@H](O)CCN)NC(=O)[C@H]([C@H](O)[C@@H](O)c2ccc(O)cc2)NC(=O)[C@@H]2C[C@@H](O)CN2C(=O)[C@H]([C@@H](C)O)NC1=O	broth dilution	MIC		B 32480	8 µg/mL
CCNC(=S)N/N=C(\N)c1ccccn1		MIC100		ATCC 24067D2	>416.7 µM
Cc1nc(NCCCCNc2ccnc3cc(Cl)ccc23)nc(-c2ccccc2)c1C(=O)OC(C)C		MIC99		27JF	4 µg/mL
Nc1[nH]c(=O)ncc1F		Mean MIC		42 isolates (HIV+)	2.06 µg/mL
Nc1ncccc1-c1cc(Cc2ccc(COc3ccccn3)cc2)no1	broth dilution	MIC50			0.25 µg/mL
C[C@@H](N1CCN(Cc2cn(Cc3ccc(Cl)cc3Cl)c3ccc(C#N)cc23)CC1)[C@](O)(Cn1cncn1)c1ccc(F)cc1F	resazurin	MIC80		ATCC 36556	>128 µg/mL
C[C@@H](n1ncn(-c2ccc(OCC(F)(F)C(F)F)cc2)c1=O)[C@](O)(Cn1cncn1)c1ccc(F)cc1F		MFC		DUMC 119.95	0.5 µg/mL
C=C1CO[C@H]2[C@@H](C)OC(OC[C@@]34C[C@H]5[C@H](C)CC[C@@H]5[C@@]5(C=O)C[C@@H]3C=C(C(C)C)[C@@]45C(=O)O)C[C@@H]12		MIC50		137 strains (serotype A)	0.5 µg/mL
C[C@@H](N1CCN(Cc2cn(Cc3ccc(C(F)(F)F)cc3)c3c(F)cccc23)CC1)[C@](O)(Cn1cncn1)c1ccc(F)cc1F	resazurin	MIC80		ATCC 36556	>128 µg/mL
Oc1ccccc1N=Cc1ccccc1	broth dilution	MIC		GM	5 µg/mL
COc1ccc(/C=C/C(=O)OC2CCN(CC(O)(Cn3cncn3)c3ccc(F)cc3F)CC2)cc1OC	broth dilution	MIC80		BLS108	0.473 µM
Oc1ccccc1N=Cc1ccc(F)cc1		MIC99		5396	8 µg/mL
C[C@H]([C@](O)(Cn1cncn1)c1ccc(F)cc1F)S(C)(=O)=O		EC50		B4500 (AZOLE-S)	0.18 µM
C[C@H]1[C@H](O)[C@@H](C)/C=C/C=C/C=C/C=C/C=C/C=C/C=C/[C@H](O[C@@H]2O[C@H](C)[C@@H](O)[C@H](N)[C@@H]2O)C[C@@H]2O[C@](O)(C[C@@H](O)C[C@@H](O)CC[C@H](O)[C@@H](O)C[C@@H](O)CC(=O)O[C@H]1C)C[C@H](O)[C@H]2C(=O)O	broth dilution	MIC100			4 µg/mL
OC(Cn1cncn1)(Cn1cncn1)c1ccc(F)cc1F	colony count	inhibition	1 µg/mL	Var. gattii (isolate 54713)	91%
O=C(/C=C/c1ccccc1)OC1CCN(CC(O)(Cn2cncn2)c2ccc(F)cc2F)CC1	broth dilution	MIC80		BLS108	0.033 µM
C[C@@H](N1CCN(Cc2c[nH]c3ccccc23)CC1)[C@](O)(Cn1cncn1)c1ccc(F)cc1F	resazurin	MIC80		ATCC 36556	>128 µg/mL
CCCCCCCCC(=O)OC1CCN(CC(O)(Cn2cncn2)c2ccc(F)cc2F)CC1	broth dilution	MIC80		BLS108	0.034 µM
CCOC(=O)c1cnc(NCCCCNc2ccnc3cc(Cl)ccc23)nc1C		MIC99		27JF	4 µg/mL
CC(=O)OC1CCN(CC(O)(Cn2cncn2)c2ccc(F)cc2F)CC1	broth dilution	MIC80		BLS108	0.658 µM
CC(O)Cc1ccc(Cn2cc(CN3CCN([C@H](C)[C@](O)(Cn4cncn4)c4ccc(F)cc4F)CC3)c3cccc(F)c32)cc1	resazurin	MIC80		ATCC 36556	>128 µg/mL
Cn1nc(Cc2ccc(Cl)cc2)c2ccccc2c1=O	broth dilution	MFC		Clinical isolate (IM 042074)	31.3 µg/mL

A second listing of 3 rows from above:

{"structure": "O=C(/C=C/c1ccccc1)OC1CCN(CC(O)(Cn2cncn2)c2ccc(F)cc2F)CC1", "read by": "broth dilution", "read-out": "MIC80", "strain or isolate": "BLS108", "value": "0.033 µM"}
{"structure": "Cc1nc(NCCCCNc2ccnc3cc(Cl)ccc23)nc(-c2ccccc2)c1C(=O)OC(C)C", "read-out": "MIC99", "strain or isolate": "27JF", "value": "4 µg/mL"}
{"structure": "C[C@@H](N1CCN(Cc2c[nH]c3ccccc23)CC1)[C@](O)(Cn1cncn1)c1ccc(F)cc1F", "read by": "resazurin", "read-out": "MIC80", "strain or isolate": "ATCC 36556", "value": ">128 µg/mL"}